Measured values from several laboratories, pooled; numbers as filed in NIAID ChemDB.

All rows: tests on isolated targets; species: HIV-1; protein: Reverse transcriptase

ICn: concentration for n% inhibition.

SMILES	mutations	strain or isolate	read-out	method	value
Cc1cn([C@H]2C[C@H](N=[N+]=[N-])[C@@H](COP(=O)(O)OP(=O)(O)C(F)(F)P(=O)(O)O)O2)c(=O)[nH]c1=O	-	-	Ki	-	0.041 µM
Cc1cn([C@@H]2C=C[C@H](COP(=O)(O)OP(=O)(O)OP(=O)(O)O)O2)c(=O)[nH]c1=O	RT-M184V	-	Ki	-	1600 µM
CC(C)Nc1cccnc1N1CCN(C(=O)c2cc3cc4c(cc3[nH]2)OCO4)CC1	RT-P236L	IIIB	IC50	-	11.1 µM
O=S(Cc1[nH]c2ccccc2c1Sc1ccccc1)c1ccccc1	-	-	IC50	RT activity	0.06 µM
CO[C@H]1/C=C/O[C@@]2(C)Oc3c(C)c(O)c4c(c3C2=O)C(=O)C(SCCOC(=O)CCC(=O)OC[C@H]2O[C@@H](n3cc(C)c(=O)[nH]c3=O)C[C@@H]2N=[N+]=[N-])=C(NC(=O)/C(C)=C\C=C\[C@H](C)[C@H](O)[C@@H](C)[C@@H](O)[C@@H](C)[C@H](OC(C)=O)[C@@H]1C)C4=O	-	IIIB	IC50	RT activity	145 µM
C=C(CC[C@@H](C)[C@H]1CC[C@@]2(C)[C@@H]3CC[C@H]4[C@](C)(C(=O)O)[C@@H](O)CC(=O)[C@@]45C[C@@]35CC[C@]12C)C(C)C	-	-	IC50	nucleotide incorporation / radiometric	47.9 µg/mL
[B-][P@](=O)(OC[C@H]1O[C@@H](n2cc(C)c(=O)[nH]c2=O)C[C@@H]1N=[N+]=[N-])OP(=O)(O)C(F)(F)P(=O)(O)O	-	-	Ki	-	0.008 µM
COc1ccccc1N1CCN(C(=O)c2cc3ccccc3[nH]2)CC1	-	IIIB	IC50	RT activity	65 µM
COC(=O)C(Cc1ccccc1)NC(=O)[C@@H](NC(=O)[C@@H](C[C@H](O)[C@H](CC1CCCCC1)NC(=O)[C@@H](NC(=O)[C@H](Cc1ccccc1)CS(=O)(=O)C(C)(C)C)C(C)C)C(C)C)C(C)C	-	IIIB	IC50	nucleotide incorporation	0.3 µM
COc1cc(O)c2c(=O)cc(-c3cc(OC)c(OC)c(OC)c3OC)oc2c1	-	-	IC50	nucleotide incorporation / radiometric	>200 µg/mL
Cc1cn([C@H]2CC[C@@H](COP(=O)(O)OP(=O)(O)OP(=O)(O)O)O2)c(=O)[nH]c1=O	RT-I135A	-	IC50	nucleotide incorporation / radiometric	0.08 µM
Nc1nc2c(ncn2[C@H]2C=C[C@@H](COP(=O)(O)OP(=O)(O)OP(=O)(O)O)C2)c(=O)[nH]1	RT-M184V	-	Ki	-	14 µM
C[C@@H]1CN2CCC[C@@H]3CCCCC[C@@H]4C(=O)[C@@H](C)CN5CCC[C@@H](CCCCC[C@@H](C1=O)[C@H]32)[C@H]45	-	-	IC50	nucleotide incorporation / radiometric	14.8 µM
CN1CCN(C(=O)COc2ccc(NC(=O)CSc3nnnn3-c3ccc(C(C)(C)C)cc3Cl)c(Cl)c2)CC1	RT-K103 Y181C	-	IC50	PicoGreen / fluorescence	<1 µM
CC[C@@]1(c2ccccc2)Oc2cccnc2-n2cccc2C1=O	-	-	IC50	nucleotide incorporation / radiometric	>2 µM
COCc1cc2cc(OC)c(OC)cc2c(-c2ccc3c(c2)OCO3)c1C=O	-	-	IC50	nucleotide incorporation	3.5 µM
COc1cc(-c2cc(=O)c3c(O)cc(O)cc3o2)c(OC)c(OC)c1OC	-	-	IC50	nucleotide incorporation / radiometric	>200 µg/mL
CC(C)=CCN1Cc2cccc3[nH]c(=S)n(c23)C[C@@H]1C	-	NL4-3	IC50	nucleotide incorporation	0.58 µM
CC(C)(C)[Si](C)(C)OC[C@H]1O[C@@H](n2cnc3c(N)ncnc32)[C@H](O[Si](C)(C)C(C)(C)C)C12OS(=O)(=O)C=C2N	-	-	IC50	ELISA	<16 µM
COc1ccccc1N1CCN(C(=O)c2cc3cc4c(cc3[nH]2)OCO4)CC1	RT-Y181C	IIIB	IC50	-	>50 µM
Cc1cn([C@H]2C=C[C@@H](COP(=O)(O)OP(=O)(O)OP(=O)(O)O)O2)c(=O)[nH]c1=O	-	-	Ki	-	5.2 µM
CO[C@H]1/C=C/O[C@@]2(C)Oc3c(C)c(O)c4c(c3C2=O)C(=O)C(SCCOC(=O)CCC(=O)OC[C@H]2O[C@@H](n3cc(C)c(=O)[nH]c3=O)CC2O)=C(NC(=O)/C(C)=C\C=C\[C@H](C)[C@H](O)[C@@H](C)[C@@H](O)[C@@H](C)[C@H](OC(C)=O)[C@@H]1C)C4=O	-	IIIB	IC50	RT activity	~300 µM
O=C(O)C1=C[C@@H](OC(=O)c2cc(O)c(O)c(O)c2)[C@@H](OC(=O)c2cc(O)c(O)c(O)c2)[C@H](OC(=O)c2cc(O)c(O)c(O)c2)C1	-	-	IC50	nucleotide incorporation	0.1 µM
CCOCn1c(Cc2ccccc2)c(C(C)C)c(=O)[nH]c1=O	-	IIIB	IC50	nucleotide incorporation	0.4 µM
NC(=O)c1[nH]c2ccc(Cl)cc2c1S(=O)c1ccccc1	-	-	IC50	RT activity	0.02 µM
O=c1cc(Cc2c(F)cccc2F)nc(SC2CCCC2)[nH]1	-	-	IC50	-	600 µM
Cc1c(Sc2ccccc2)n(COCCO)c(=O)[nH]c1=O	-	-	IC50	nucleotide incorporation	56 µM
NCCc1c[nH]c2ccc(O)cc12	-	-	IC50	-	>8000 µM
COc1cc2c(cc1OC)[C@H](c1cc(OC)c(OC)c(OC)c1)[C@@H](C)[C@@H](C)C2	-	-	IC50	nucleotide incorporation	2.11 µM
O=C(/C=C/c1ccc(O)c(O)c1)O[C@@H]1CC(O)(C(=O)O)C[C@@H](OC(=O)/C=C/c2ccc(O)c(O)c2)C1O	-	-	IC50	nucleotide incorporation	1.16 µM
Cc1cn([C@@H]2O[C@H](CO[Si](C)(C)C(C)(C)C)C3(OS(=O)(=O)C=C3N)[C@H]2O[Si](C)(C)C(C)(C)C)c(=O)n(C)c1=O	-	IIIB	IC50	nucleotide incorporation	1.1 µM
COc1ccc2[nH]cc(CCN)c2c1	-	-	IC50	-	<8000 µM
Cc1cc(C)cc(S(=O)(=O)c2c(C(=O)NNCCO)[nH]c3ccc(Cl)cc23)c1	RT-V179D	-	IC50	nucleotide incorporation / radiometric	>40 µM
CO[C@H]1/C=C/O[C@@]2(C)Oc3c(C)c(O)c4c(c3C2=O)C(=O)C(SCCCCCCCOC(=O)CCCC(=O)OC[C@H]2O[C@@H](n3cc(C)c(=O)[nH]c3=O)C[C@@H]2N=[N+]=[N-])=C(NC(=O)/C(C)=C\C=C\[C@H](C)[C@H](O)[C@@H](C)[C@@H](O)[C@@H](C)[C@H](OC(C)=O)[C@@H]1C)C4=O	-	IIIB	IC50	RT activity	~300 µM
CCOc1ccccc1N1CCN(C(=O)c2cc3cc4c(cc3[nH]2)OCO4)CC1	-	IIIB	IC50	-	1.5 µM
Cc1cc(C)cc(Sc2c(C(C)C)c(=O)[nH]c(=S)n2COCCO)c1	-	IIIB	IC50	nucleotide incorporation	16.8 µM
Nc1ccn([C@H]2CC[C@@H](COP(=O)(O)OP(=O)(O)OP(=O)(O)O)O2)c(=O)n1	RT-Y181I	-	Ki	RT activity	0.4 µM
O=C(O[C@@H]1C[C@](O)(C(=O)O)C[C@@H](O)[C@H]1O)c1cc(O)c(O)c(O)c1	-	-	IC50	nucleotide incorporation	72.6 µM

Again, the opening 4 rows:

SMILES,mutations,strain or isolate,read-out,method,value
Cc1cn([C@H]2C[C@H](N=[N+]=[N-])[C@@H](COP(=O)(O)OP(=O)(O)C(F)(F)P(=O)(O)O)O2)c(=O)[nH]c1=O,-,-,Ki,-,0.041 µM
Cc1cn([C@@H]2C=C[C@H](COP(=O)(O)OP(=O)(O)OP(=O)(O)O)O2)c(=O)[nH]c1=O,RT-M184V,-,Ki,-,1600 µM
CC(C)Nc1cccnc1N1CCN(C(=O)c2cc3cc4c(cc3[nH]2)OCO4)CC1,RT-P236L,IIIB,IC50,-,11.1 µM
O=S(Cc1[nH]c2ccccc2c1Sc1ccccc1)c1ccccc1,-,-,IC50,RT activity,0.06 µM

Blank or dashed fields: not listed here. Neighbouring rows are from separate reports.